# Laboratory results: patent US20120207760A1, “Compositions and Methods for the Therapy and Diagnosis of Influenza” (THERACLONE SCIENCES, published 2012)
# B1: TCN-539 (5056_A08) (antibody, V domains shown)
# VH: QVQLVESGGGVVQPGRSLRLSCAASEITFITYAMHWVRQAPGKGLEWVALISDDGSNKFYADSVKGRFTISRDNSKNTLYLQMNSLRAEDTAAYYCAREGVYFDSGTYRGYFDYWGQETLVTVSS
# VL: EIVLTQSPATLSLSPGERATLSCRASQSVSSYLAWYQQKPGQAPRLLIYDASNRATGIPARFSGSGSGTDFTLTISSLEPEDFAVYYCQQRSHWPPITFGQGTRLEIK
# B2: TCN-546 (5089_L08) (antibody, V domains shown)
# VH: QVQLQQWGAGLLKPSETLSLTCGVYGGSLSDYYWSWIRQPPGKGLEWIGEINHSGGTNYNPSLKRRVTISVDTSKKQFSLKMNSVTAADTAVYYCARGTDPDTEVYCRAGNCAAFDFWGQGTLVTVSS
# VL: EIVLTQSPGTLSLSPGERATLSCRASHFVIGRAVAWYQQKPGQAPRLLIYGASSRATGIPDRFSGSGSGTDFTLTISRLETEDFAVFYCQHYGSSPRYAFGQGTKLEIK
# B3: TCN-551 (5243_D01) (antibody, V domains shown)
# VH: EVQLVQSGSEVKKPGESLKISCKGSGYSFSNYWIGWVRHMPGKGLEWMGIIYPGDSDTRYSPSFQGQVTMSADKSSSTVYLQWSSLKASDTAIYYCARRGGHSFGYGSGGDTHSEFDSWGQGTLVTVSS
# VL: QSVLTQSPSVSAAPGQKVTISCSGSDSNIGDYFVCWYQHLPGKPPQLLIYENNKRPSGIPDRFSGSKSGTSATLGITGIQTGDEADYYCATWDGSLSAWVFGGGTKLTVL
# B4: TCN-552 (5249_I23) (antibody, V domains shown)
# VH: QVQVVQSGAEVKKPGSSVRVSCQASGGTFMNYAIIWVRRAPGQGLEWMGGIIPVFPTPNYAQMFQGRVTISTDESRSTSFLELTNLRYEDTAVYYCARRIYHGGNSGFDFWGQGTLVTVSS
# VL: EIVLTQSPATLSLSPGERATLSCRASQSVGNYLAWYQQKPGQAPRLLIYDSSNRAPGIPARFSGSGSGTDFTLTISSLAPEDFAVYYCQQRSKWPPMYSFGHGTKLEIK
# B5: TCN-554 (5277_M05) (antibody, V domains shown)
# VH: QVQLVQSGADLKKPGASVKVSCKASGYTFTDYYIHWVRQAPGQGLEWMGWINPESGDTKYAQKFQGRVTMTRDTSITTAYMELGRLRSDDTAVYYCARDVSTTWSWFAPWGQGTLVTVSS
# VL: DIVMTQSPDSLAVSLGERATINCRSSQSIFHNSNNENYLAWYQQKPGQPPKLLIYWASTRESGVPDRFSGSGSGTDFTLTISSLQAEDVAVYFCQQYYNAPLTFGGGTKVEIK
# B6: TCN-558 (5248_H10b) (antibody, V domains shown)
# VH: QVQLVQSGSEVKKPGTSVKVSCTASGSVFTNYGISWVRQAPGQGLEWMGGIIPLFGAAKYAQKFQGRVTITADESTKTVYMELSRLTSKDTAIYFCAKAPRVYEYYFDQWGQGTPVTVSS
# VL: EIVMTQFPATLSVSPGERVTLSCRASQSVSNNLAWYQQKPGQPPRLLIYDASTRATGVPAKFSGTGSGTEFTLSISSLQSEDFAVYYCQQYHNWPPSYSFGLGTKLEIK
# B7: TCN-563 (5237_B21) (antibody, V domains shown)
# VH: QVQLAQSGAEVKRPGSSVKVSCTASGGIFRKNAISWVRQAPGQGLEWMGGIIAVFNTANYAQKFQGRVKITADESGNTAYMELSSLRSDDTAVYYCASHPKYFYGSGSYPDFWGQGTLVTVSS
# VL: QSALTQPRSVSGSPGQSVTISCTGSSSDVGASNSVSWYQQHPGKAPKLVIYDVTERPSGVPHRFSGSKSGNTASLTVSGLQPEDEADYFCCAYGGKYLVVFGGGTKVTVL
# B8: TCN-527 (5086_C06) (antibody, V domains shown)
# VH: QVQLQESGPGLVKPSETLSLNCAVSGGSISNYYWSWIRQPPGKGLEWIGYISYNGRPKYNPSLTSRVTISVDTSKDQFSLELRSVTAADTALYYCARETRFGELLSPYDAFEIWGQGTMVTVSS
# VL: DIQMTQSPSSLSASVGDRVTMTCRASQNIRSYLNWYQQRPGTAPKLLIYAASTLHSGVPSRFSGGGSGTDFTLTINNLQPEDFASYYCQQSYDNPQTFGQGTKVEIK
# B9: TCN-528 (5087_P17) (antibody, V domains shown)
# VH: QVQLVQSGSEVKKPGASVKVSCKASGYTFTNYDINWIRQAPGQGLEWMGWINPNSGTTGSAQRFQGRVTITVDTSITTVYMELSSLRSDDTAIYYCARGRELLRLQHFLTDSQSERRDCFDPWGQGTLVTVSS
# VL: DIQMTQSPSSLSASVGDRVTITCRANQDIGIYLNWYQQNPGKVPKLLLHGASSLQGGVPSRFSASGSGTDFTLTIHSLQPEDLATYYCQQSRRLPYTFGQGTRVELK
# B10: TCN-531 (5091_H13) (antibody, V domains shown)
# VH: EVQLVESGGDLVQPGRSLKLSCTGSGFTFGDYGVTWVRQAPGKGLEWVGFIRTRPWGGTADTAASVKGRFTISRDDSKSLAYLQMNSLKTEDTAVYYCCRDAPPNVEVASMTNWYFDLWGRGTLVTVSS
# VL: DIQLTQSPSSLSASVGDRVTITCRASQGILNCLAWYQQKPGKVPNLLMYAASTLQSGVPSRFSGSGFGTDFTLTISSLQPEDVATYYCQTYGGVSTFGGGTKVEIR
# B11: TCN-540 (5060_F05) (antibody, V domains shown)
# VH: QVQLVQSGGGVVQPGRSLRLSCAASGFTFSSYAMHWVRQAPGKGLEWVAIISYDGNDQYYTDSVKGRFTISRDSSKVYLQMHRLRPEDTAVYYCAKEFETSGYFHGSFDYWGQGILVTVSS
# VL: QSALTQPASVSGSPGQSITISCTGTSSDVGGYNYVSWYQQHPGKAPKLLIYEVTNWPSGVSNRFSGSKSGNTASLTISGLQAEDEADYYCSSYAGSSTWVFGGGTRVTVL
# B12: TCN-550 (5096_F06) (antibody, V domains shown)
# VH: QVQLQESGPGLVKPSETLSLTCTVSGASINSHYWSWIRQPPGKGLEWIGYVYYSGSTTYNPSLKSRVTLSVDTSKNQFSLNLSSVTAADTAFYYCARHPYDVLTGSGDWFDPWGQGTLVTVSS
# VL: SYVLTQAPSVSVAPGQTARITCGGNAIGSKKVHWYQHKAGQAPVLVVYDDTDRPSGIPERFSGSNSWSTATLTINRVEAGDEADYYCQVWDFTIDHVVFGGGTKLTVL
# Legend:
# [1] = target: recombinant soluble homotrimeric HA of A/Anhui/1/05 - H5N1 (Influenza A virus A/Anhui/1/2005 (H5N1))
# [2] = target: recombinant soluble homotrimeric HA of A/chicken/Vietnam/NCVD-016/08 - H5N1 (Influenza A virus …); assay: micro-array; captured IgG, V5-tagged trimeric HA
# [3] = target: recombinant soluble homotrimeric HA of A/Hong Kong/156/97 - H5N1 (Influenza A virus A/Hong Kong/156/97 …); assay: micro-array; captured IgG, V5-tagged trimeric HA
# [4] = target: recombinant soluble homotrimeric HA of A/duck/Yangzhou/02/2005 - H8N4 (Influenza A virus …); assay: micro-array; captured IgG, V5-tagged trimeric HA
# [5] = target: recombinant soluble homotrimeric HA of A/northern shoveler/California/HKWF115/2007 - H6N1 (Influenza A virus A/northern …); assay: micro-array; captured IgG, V5-tagged trimeric HA
# [6] = target: recombinant soluble homotrimeric HA of A/Egypt/3300-NAMRU3/08 - H5N1 (Influenza A virus …); assay: micro-array; captured IgG, V5-tagged trimeric HA
# [7] = target: recombinant soluble homotrimeric HA of A/Netherlands/219/03 - H7N7 (Influenza A virus A/Netherlands/219/03 …)
# [8] = target: recombinant soluble homotrimeric HA of A/northern shoveler/California/HKWF115/07 (Influenza A virus A/northern …); assay: microarray, BCC supernatant IgG, trimeric HA
# [9] = target: recombinant soluble homotrimeric HA of A/Solomon Islands/3/06 (H1N1) (Influenza A virus A/Solomon …); assay: microarray, BCC supernatant IgG, trimeric HA
# [10] = target: recombinant soluble homotrimeric HA of A/swine/Ontario/01911-2/99 (H4N6) (Influenza A virus …); assay: microarray, BCC supernatant IgG, trimeric HA
# [11] = target: recombinant soluble homotrimeric HA of A/duck/Yangzhou/02/05 (H8N4) (Influenza A virus …); assay: microarray, BCC supernatant IgG, trimeric HA
# [12] = target: recombinant soluble homotrimeric HA of A/California/4/09 (H1N1) (Influenza A virus A/California/4/09 …); assay: microarray, BCC supernatant IgG, trimeric HA
# [13] = target: recombinant soluble homotrimeric HA of A/chicken/Vietnam/NCVD-016/08 (H5N1) (Influenza A virus …); assay: microarray, BCC supernatant IgG, trimeric HA
# [14] = target: recombinant soluble homotrimeric HA of A/Egypt/3300-NAMRU3/08 (H5N1) (Influenza A virus …); assay: microarray, BCC supernatant IgG, trimeric HA
# [15] = target: recombinant soluble homotrimeric HA of A/Netherlands/219/03 (H7N7) (Influenza A virus A/Netherlands/219/03 …)
# [16] = target: recombinant soluble homotrimeric HA of A/Wisconsin/67/05 (H3N2) (Influenza A virus A/Wisconsin/67/05 …)
# [17] = target: recombinant soluble homotrimeric HA of A/Hong Kong/2108/03 (H9N2) (Influenza A virus A/Hong Kong/2108/03 …); assay: microarray, BCC supernatant IgG, trimeric HA
# [18] = target: recombinant soluble homotrimeric HA of A/Anhui/1/05 (H5N1) (Influenza A virus A/Anhui/1/05 (H5N1))
# [19] = target: recombinant soluble homotrimeric HA of A/Indonesia/5/05 (H5N1) (Influenza A virus A/Indonesia/5/05 …)
Binder,Trimeric HA Binding: RLU [1],Trimeric HA Binding: RLU [2],Trimeric HA Binding: RLU [3],Trimeric HA Binding: RLU [8],Trimeric HA Binding: RLU [9],Trimeric HA Binding: RLU [11],Trimeric HA Binding: RLU [12],Trimeric HA Binding: RLU [13],Trimeric HA Binding: RLU [15],Trimeric HA Binding: RLU [16],Trimeric HA Binding: RLU [17],also measured
B1,3240 RLU,3500 RLU,1450 RLU,,,,,,,,,
B2,33300 RLU,2940 RLU,1240 RLU,,,,,,,,,Trimeric HA Binding: RLU [4]: 11400 RLU; Trimeric HA Binding: RLU [5]: 2430 RLU; Trimeric HA Binding: RLU [6]: 53000 RLU
B3,2640 RLU,,792 RLU,,,,,,,,,
B4,9010 RLU,34500 RLU,36300 RLU,,,,,,,,,Trimeric HA Binding: RLU [4]: 15900 RLU; Trimeric HA Binding: RLU [5]: 43900 RLU; Trimeric HA Binding: RLU [6]: 21200 RLU
B5,,2710 RLU,,,,,,,,,,Trimeric HA Binding: RLU [7]: 4520 RLU; Trimeric HA Binding: RLU [4]: 5810 RLU
B6,,33400 RLU,,,,,,,,,,Trimeric HA Binding: RLU [7]: 5840 RLU; Trimeric HA Binding: RLU [5]: 29400 RLU
B7,,,,27300 RLU,30000 RLU,46700 RLU,45200 RLU,41000 RLU,7520 RLU,40800 RLU,,Trimeric HA Binding: RLU [10]: 4500 RLU; Trimeric HA Binding: RLU [14]: 27500 RLU
B8,,,,30300 RLU,16500 RLU,28800 RLU,28000 RLU,,8890 RLU,5720 RLU,16000 RLU,Trimeric HA Binding: RLU [10]: 7690 RLU
B9,,,,46800 RLU,44800 RLU,38400 RLU,48800 RLU,38200 RLU,49300 RLU,48800 RLU,42000 RLU,Trimeric HA Binding: RLU [10]: 47500 RLU
B10,,,,,,3120 RLU,,,,7090 RLU,,Trimeric HA Binding: RLU [18]: 3610 RLU
B11,,,,131 RLU,,117 RLU,57 RLU,70 RLU,381 RLU,728 RLU,22 RLU,Trimeric HA Binding: RLU [14]: 1970 RLU; Trimeric HA Binding: RLU [19]: 31 RLU; Trimeric HA Binding: RLU [18]: 25 RLU
B12,,,,964 RLU,204 RLU,407 RLU,,361 RLU,,26300 RLU,2280 RLU,Trimeric HA Binding: RLU [19]: 9100 RLU
